The exact form of at least one protein or probe is not confirmed.
How the values were obtained:
[1] = system: CarR (Vibrio vulnificus MO6-24/O); assay: EMSA; settings: poly(dI-dC), unlabeled self-competitor competes dose-dependently, 40 mM Tris-Cl pH 8.0, 50 mM NaCl, 1 mM DTT, 100 uM EDTA, 0.1 ug/uL BSA, 0.05 ug poly(dI-dC) in 20 uL, 25 C, 30 min, probe 5 nM (EMSA) or 40 nM (DNase I), recombinant protein, residues 1-234, protein details: His6, probe letters rebuilt from the primers and the genome
[2] = system: CarR D55A (Vibrio vulnificus MO6-24/O); assay: EMSA; settings: poly(dI-dC), affinity stated similar to CarR, 40 mM Tris-Cl pH 8.0, 50 mM NaCl, 1 mM DTT, 100 uM EDTA, 0.1 ug/uL BSA, 0.05 ug poly(dI-dC) in 20 uL, 25 C, 30 min, probe 5 nM (EMSA) or 40 nM (DNase I), recombinant protein, residues 1-234, protein details: His6, probe letters rebuilt from the primers and the genome
[3] = system: CarR (Vibrio vulnificus MO6-24/O); assay: DNase I footprinting; settings: 1000 nM CarR, 40 nM DNA, poly(dI-dC), 40 mM Tris-Cl pH 8.0, 50 mM NaCl, 1 mM DTT, 100 uM EDTA, 0.1 ug/uL BSA, 0.05 ug poly(dI-dC) in 20 uL, 25 C, 30 min, probe 5 nM (EMSA) or 40 nM (DNase I), recombinant protein, residues 1-234, protein details: His6, probe letters rebuilt from the primers and the genome
[4] = label: 6-FAM (on PEPTA-R strand)
[5] = label: 6-FAM (on PCARR-R strand)

Measured: binding result

GCGGTGATGGTTAGCGCGGCGGTCAGAAGAATTTCCTGACGAAAAGCGGCCTCGTTAATCCATGCGGCTTTCAAGCCTTTCATTGAATAGCCCGTTGCGTCGACAATACGACGAATACCTGTTTTTCCTGGTTTCAAAATATAACCCTACTACTTGTTATTAATGGGAAGCTCAAAGCTGGTTGTGGCAAATGAGTAGTTCGCGGTCGCTAAGCTACTTCACCGCTCGTCAAGCAAATGTGAAAAGAAGTGAAAATAGAGGCGTTGGGAAAGATTAAGCTCGTCAACTGCGTGTTTCGGCACCAGTAACGTAAGAATCACAACGTAAAGTTGCCCTTGTTATCACTTCTATCAATGACTAGGTTGAAATGTACAGCGTTTTATTATGGAAATCAGTCACGCACGTGTAATGAATTGTCGCGCTTTGTAAGATTGGTAAGGTGAATGATGCCGAGGGCATCATTCTGTGTTAGAGGGAAAAACGAATGATGAAGCAGGCAC (double strand) [eptA operon upstream region]
binds: [1]; [4] | [2]; [4] | [3]; 35-bp protection, label: 6-FAM (on PEPTA-R strand)

CATCTGTTGGAGCTTGATGTCATCTTCAACAATGATCAACTTCTGGTCTTCTACCATGGTGTCATTCTATGCTTTGTTTTGTTGTTATATTGAGTACGTCATCAGAAGTACTGATATGAAACGAGAAGTTATACGACTCACTTCACCTTTTCAAATATAAATGACCACCAAGGAGATTGACAGCAGGAGGTTATCAGAATGGGCACAAAATCAATGTCGTCGTTTTGTATGACTTTGTCATGATCTTGAAGGGGCAACAGACAATGAGGCGCACACCTGAGCGCTTAATACGCTCAGGTGTGCTTGGTCAATTGAAGGGGAACTGGCGGTGAGTTTAGTAAGCTACGCCAATGCGCTGATTGAGGTACTGGTTCG (double strand) [carRS operon upstream region]
binds: [1]; [5] | [2]; [5] | [3]; 27-bp protection, label: 6-FAM (on PCARR-R strand)

From PMC10433830
